Results of unrelated studies side by side (data: NIAID ChemDB).

Shared fields: enzyme or target tests

Blank or dashed fields: not listed here. Rows are shuffled and stem from different studies. Two numbers with a dash give a range or band. ICn is the concentration giving n% inhibition. Inhibition is in % at the dose shown (toxicity tests: loss of growth or viability). Fold resistance: result on the changed form divided by that on wild type.

SMILES,target,endpoint,changes,read by,organism,tested at,strain or isolate,value
CN(C)C(=O)C1CN(Cc2ccc(Cl)c(Cl)c2)C(=O)c2c(O)c(=O)ccn21,Integrase,IC50,-,ELISA,HIV-1,-,-,0.1–1 µM
CC(C)(C#Cc1ccc(NC(=O)CSc2nnnn2-c2cc(Cl)ccc2Cl)c(Cl)c1)NC(=O)CN1CCNCC1,Reverse transcriptase,IC50,-,PicoGreen / fluorescence,HIV-1,-,WT,<1 µM
CC(C)=CCN1Cc2cccc3[nH]c(=S)n(c23)C[C@@H]1C,Reverse transcriptase,fold resistance,RT-F61L,nucleotide incorporation,HIV,-,-,0.783
CC[C@H](C)[C@H](NC(=O)[C@@H]1CCCN1C(=O)[C@H](O)[C@H](Cc1ccccc1)NC(=O)[C@H](CO)NC(=O)CCc1ccccc1)C(=O)N[C@H](C(N)=O)C(C)C,Protease,inhibition,-,-,HIV-1,1000 µM,-,84.3%
CN1CCN(C(=O)NC(C)(C)C#Cc2ccc(NC(=O)CSc3nnnn3-c3ccc(C4CC4)cc3Cl)c(Cl)c2)CC1,Reverse transcriptase,IC50,RT-K103 Y181C,PicoGreen / fluorescence,HIV-1,-,-,<1 µM
CC(C)[C@H](N)C(=O)N[C@H](C(=O)N[C@@H](Cc1ccccc1)[C@H](O)C(=O)N[C@@H](Cc1ccccc1)C(=O)N[C@H](C(=O)N[C@H](C(N)=O)C(C)C)C(C)C)C(C)C,Protease,inhibition,-,-,HIV-1,5 µM,-,67.9%
CC(C)(C#Cc1ccc(NC(=O)CSc2nnnn2-c2ccc(CC3CC3)cc2Cl)c(Cl)c1)OCCN1CCCC1,Reverse transcriptase,IC50,-,PicoGreen / fluorescence,HIV-1,-,WT,<1 µM
O=C1c2c(O)c(=O)ccn2CCN1Cc1ccc(F)cc1,Integrase,IC50,-,ELISA,HIV-1,-,-,0.01–0.1 µM
CC(C)(C)NC(=O)[C@@H]1CSCN1C(=O)[C@@H](O)[C@H](Cc1ccccc1)NC(=O)[C@H](CC(N)=O)NC(=O)OCc1ccccc1,Protease,inhibition,-,-,HIV-1,5 µM,-,98.7%
CNC(=O)OCC(C)(C)C#Cc1ccc(NC(=O)CSc2nnnn2-c2ccc(C(C)(C)C)cc2Cl)c(Cl)c1,Reverse transcriptase,IC50,-,PicoGreen / fluorescence,HIV-1,-,WT,<1 µM
CC(C)(C)C(=O)c1cn2c(c(O)c1=O)C(=O)N(Cc1cccc(Cl)c1)CC2,Integrase,IC50,-,ELISA,HIV-1,-,-,0.01–0.1 µM
Nc1ccn([C@@H]2CS[C@H](COP(=O)(O)OP(=O)(O)OP(=O)(O)O)O2)c(=O)n1,Reverse transcriptase,fold resistance,RT-D67N K70R T215Y K219Q,radiometric,HIV,-,-,1.5
CC(C)(C)NC(=O)[C@H]1N(C(=O)[C@@H](O)[C@H](Cc2ccccc2)NC(=O)[C@H](CC(N)=O)NC(=O)COc2ccccc2-c2ccccc2)CSC1(C)C,Protease,inhibition,-,-,HIV-1,0.05 µM,-,97%
CNS(=O)(=O)c1ccc(NC(=O)CSc2nnnn2-c2ccc(C(C)(C)C)cc2Cl)c(Cl)c1,Reverse transcriptase,IC50,-,PicoGreen / fluorescence,HIV-1,-,WT,<1 µM
N[C@@H](Cc1ccccc1)C(=O)N[C@@H](CO)C(=O)N[C@@H](Cc1ccccc1)[C@@H](O)C(=O)NCC1CCCCC1,Protease,IC50,-,-,HIV-1,-,-,>1000 µM
O=c1ccn2ccn(CCCc3cc(Cl)cc(Cl)c3)c(=O)c2c1O,Integrase,IC50,-,ELISA,HIV-1,-,-,0.01–0.1 µM
CC(C)(C)c1ccc(-n2nnnc2SCC(=O)Nc2ccc(OCC(=O)NC3CCOCC3)cc2Cl)c(Cl)c1,Reverse transcriptase,IC50,RT-K103 Y181C,PicoGreen / fluorescence,HIV-1,-,-,<1 µM
CC(C)(C)NC(=O)[C@@H]1CSCN1C(=O)[C@@H](O)[C@H](Cc1ccccc1)NC(=O)[C@H](CS(C)(=O)=O)NC(=O)COc1cccc(C(=O)N2CCOCC2)c1,Protease,IC50,-,-,HIV-1,-,-,~0.05 µM